Measurements reported in PubChem BioAssay AID504761 (Drosophila RNAi Screening Center, 2011).
In all, the deposit lists about 22,000 reagents; below is a random part of those that have a named target and a result. Over the whole deposit, 116 (0.52%) were called active. 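Calls depend on retest data that are not deposited; infection was ranked per plate without normalising between plates; the unit of the infection score is not given.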 Raw values vary from plate to plate and are shown uncorrected. A number with no mark means an inactive call. Reagents against one gene are numbered here. Not stated in the record: the amount of reagent, the time to read-out.

Test: 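Genome-wide fly cell screen for genes dengue virus requires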 (primary screen)
Cells: D.Mel-2 cells from Drosophila
Reagents: long dsRNA against Drosophila genes
Treatment: infection with dengue virus type 2; dose and infection time not stated
Measured: 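Per well on two replicate plates, imaging gave the percent of cells positive for viral envelope protein, ranked by infection, and a nuclear count of cells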
Direction: infection score: higher = more virus-infected cells; cell count: higher = more cells in the well
Rule for the call: 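Low infection ranks in the two replicates (chance level up to 0.065) followed by a retest with a 1.5-fold or larger significant decrease, p below 0.05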
Calls: active = confirmed: knock-down lowers infection; inactive = not picked or not confirmed

gene	reagent	infection score, replicate 1	infection score, replicate 2	cell count, replicate 1	cell count, replicate 2
eloF	1	7.5	5.76	6094	6444
eloF	2	2.85	3.04	6341	5897
da	1	14.6	11.7	5887	6263
ND-39	1	13.2	23.2	4928	4408
ND-39	2	3.34	6.37	479	1099
CG14965	1	6.11	7	6300	6890
p130CAS	1	2.02	0.69	5745	5822
p130CAS	2	15.4	8.68	7156	6877
p130CAS	3	2.6	1.56	5855	6103
CkIIbeta2	1	4.96	0.73	5988	5895
Tsen34	1	2.03	3.89	6793	6942
CG30479	1	12.1	6.02	5841	6648
CG30479	2	20.6	25.8	5759	4715
CG6028	1	4.23	7.2	6339	6860
gcm2	1			483	586
gcm2	2	4.61	3.51	6078	6658
DAAM	1	21.9	3.25	6509	6775
CARPB	1	0.57	1.2	6698	7089
CARPB	2	7.27	7.01	6783	6774
CG9631	1	4.05	9.99	6815	7138
Ant2	1	8.71	5.8	6932	6894
Ant2	2	1.64	7.77	6809	5816
CG14963	1	1.53	2.83	6062	5652
